Measured values published in patent US20040258699A1 (published 2004).

B1: Fab 83K7C (Fab, V domains shown)
VH: QVQLVQSGAEVKKPGASVKVSCKASGYTFTYYAMHWVRQAPGQRPEWMGWINGGDGKTKYAQKFQGRLAITRDTSARTAYMELISLTSEDTAVYYCAKGAEMTVGSWGPGTLVTVSS
VL: DIQMTQSPSSLSASVGDRVTLTCRASQGVRNALVWYQQKPGKAPERLIYAASILQSGVPSRFSGSGSGTEFTLTIGGLQPEDFATYYCLQHNSYPWTFGQGTKVEIK
B2: Fab 83L8E (Fab, V domains shown)
VH: EVQLVESGGGEVQPGRSLRLSCAASGFIFRSFGMHWVRQAPGKGLEWVAAISYDGTNKDYGDSVKGRFTISRDNSRNMVYLQMNSLRAEDTAVYYCAKEGVIIPAATKDRSNYFDYWGQGTLVTVSS
VL: QAVLTQPSSLSASPGASASLTCTLRSGFYVGSYMINWYQQKPGSPPQFLLRYRSDSDIQRGSGVPSRFSGSKDTSANAGILLISGLQPEDEADYYCMIWHIDTVFFGGGSKLTVL

Legend:
[1] = molecular target: T1, PA83 (anthrax protective antigen, 83 kDa form) (Bacillus anthracis, UniProt P13423 30-764); experiment: SPR (Biacore), kd/ka
[2] = molecular target: T2, PA63 (anthrax protective antigen, 63 kDa form) (Bacillus anthracis, UniProt P13423 197-764); experiment: SPR (Biacore), immobilized PA63, kd/ka
[3] = molecular target: T1, PA83 (anthrax protective antigen, 83 …); experiment: SPR (Biacore)
[4] = molecular target: T2, PA63 (anthrax protective antigen, 63 …); experiment: SPR (Biacore), immobilized PA63
[5] = molecular target: T2, PA63 (anthrax protective antigen, 63 …)
[6] = molecular target: T1, PA83 (anthrax protective antigen, 83 …)

Binder	Kd [1] [nM]	Kd [2] [nM]	koff [3] [s⁻¹]	kon [3] [M⁻¹ s⁻¹]	koff [4] [s⁻¹]	kon [4] [M⁻¹ s⁻¹]	EC50 [5] [µg/mL]	IC50 (read off the curve) [6] [µg/mL]
B1	3.67	0.87	0.000426	116000	8.5e-05	97700	< 1	
B2								~0.4
